Results of unrelated studies side by side (data: NIAID ChemDB).

All rows: whole-cell or culture tests; agent: Mycobacterium tuberculosis

An empty or dashed field is not shown. Percent inhibition refers to the dose given; in toxicity tests it is the harm to the cells. Neighbouring rows are from separate reports. MIC bound: limit read from a one-dose screen. ECn: concentration that inhibits the pathogen or its effect by n%. A number after MIC or MFC names an inhibition level or a share of isolates.

compound	method	measure	changes	conditions	cell line	tested at	strain or isolate	value
CCCCCCCCCCCCCCCCCCCCP(=O)([O-])C[C@@H]1O[C@H](CO)[C@@H](O)[C@@H]1O		EC50					H37Rv	>6.25 µg/mL
CCOC(=O)C(NC(=O)c1ccccc1)(N1CCN(c2cc3c(cc2F)c(=O)c(C(=O)O)cn3CC)CC1)C(F)(F)F	resazurin	MIC bound					H37Rv	<6.25 µg/mL
CCCCCCCCCCS(=O)(=O)C[C@@H]1O[C@H](CO)[C@@H](O)[C@@H]1O		inhibition				6.25 µg/mL	H37Rv	21%
CCCNC1=C(C)C(=O)C2=C(C1=O)[C@H](COC(N)=O)[C@]1(OC)[C@@H]3N[C@@H]3CN21	BACTEC	inhibition				12.5 µg/mL	H37Rv	100%
Cc1ccc2oc(=O)n(-c3ccc(Cl)cc3)c(=S)c2c1		MIC		14 d			My 331/88	0.5 µM
CO[C@H]1/C=C/O[C@@]2(C)Oc3c(C)c(O)c4c(O)c(c(/C=N/N5CCN(C/C=C/c6ccccc6)CC5)c(O)c4c3C2=O)NC(=O)/C(C)=C\C=C\[C@H](C)[C@H](O)[C@@H](C)[C@@H](O)[C@@H](C)[C@H](OC(C)=O)[C@@H]1C		MIC					MTB29 (MDR)	>8 µg/mL
CC(=O)CCCCCCCCCCCc1ccc2c(c1)OCO2		MIC						6.25 µg/mL
Fc1cccc(-n2c(=S)oc3ccc(Br)cc3c2=S)c1		MIC		14 d			My 331/88	2 µM
COCCNC(=O)c1ccc2c(c1)n(O)c(=O)c(C#N)[n+]2[O-]	BACTEC	MIC bound					H37Rv	>12.5 µg/mL
O=c1oc2ccc(Br)cc2c(=S)n1-c1ccccc1		MIC		21 d			My 331/88	1 µM
CN(C)c1ccc(NC(=O)c2ccccc2O)cc1		MIC					My 331/88	250 µM
Cc1[nH]c2ccccc2c1/C=N/N(C)c1ccccc1	resazurin	inhibition			VERO	6.25 µg/mL	H37Rv (ATCC 27294)	95%
CCc1nc2ccc(Cl)cn2c1C(=O)NCc1ccc(N2CCN(Cc3nc(C(F)(F)F)cs3)C=N2)cc1	GFP	EC50						0.12 µM
CCOC(=O)c1cc(CNc2ccc(OC(F)(F)F)cc2)on1	resazurin	MIC					H37Rv	0.8 µM
COc1cc(/C=C/c2ccccc2)oc(=O)c1		MIC						32 µg/mL
CCOC(=O)c1cc(CNc2cc(C(F)(F)F)nc3c(C(F)(F)F)cccc23)on1	low oxygen	MIC					H37Rv	>128 µM
C/C(=C\c1c(-c2ccccc2)[nH]c2ccccc12)[N+](=O)[O-]	resazurin	inhibition				6.25 µg/mL	H37Rv (ATCC 27294)	39%
COC(=O)COC(=O)C1C(C(N)=O)N(CC(=O)OC)CCN1CC(=O)OC	BACTEC	MIC bound					H37Rv	>12.8 µg/mL
CS/C(N)=N/NC(=O)c1ccc([N+](=O)[O-])cc1		MIC					H37Rv	>100 µg/mL
C=CCc1ccc(O)c(OC)c1		MIC						>128 µg/mL
CC1COc2c(N3CCN(C)CC3)c(F)cc3c(=O)c(C(=O)O)cn1c23		MIC50					21 strains	1 µg/mL
O=C(CNC(=O)c1ccccc1)N/N=C/c1c[nH]c2ccccc12	BACTEC	inhibition				12.5 µg/mL	H37Rv	29%
NNC(=O)c1ccncc1	broth dilution	MIC	INH resistant				INHR-MTB	11.37 µM
CCCCCCCCCCCCCCCCS(=O)(=O)C[C@@H]1O[C@H](CO)[C@@H](O)[C@@H]1O		inhibition				6.25 µg/mL	H37Rv	0%
Fc1ccc(-n2c(=S)oc3ccc(Cl)cc3c2=S)cc1		MIC		21 d			My 331/88	2 µM
CCCCCCCCCCCCCCCCP(=O)([O-])C[C@@H]1O[C@H](CO)[C@@H](O)[C@@H]1O		EC50					H37Rv	>6.25 µg/mL
CCN1C(=O)[C@@H]2[C@H](C1=O)[C@@H](C(=O)c1ccc(C)cc1)N1c3ccc4cccnc4c3C=C[C@H]21	reporter gene / fluorescence	MIC					H37Rv	>200 µM
CCc1nc2nc3c(cn2c1C(=O)NCc1ccc(N2CCN(S(=O)(=O)C(F)(F)F)C=N2)c(F)c1)CCCC3	GFP	EC50						0.013 µM
O=[N+]([O-])/C=C/c1cn(Cc2ccccc2)c2ccccc12	resazurin	inhibition				6.25 µg/mL	H37Rv (ATCC 27294)	46%
CCOC(=O)C(=O)Cc1sccc1[N+](=O)[O-]	resazurin	MIC bound					H37Rv	>6.25 µg/mL
COc1ccc(-n2c(=O)[nH]c3ccccc3c2=O)cc1		MIC					My 331/88	>500 µM
CN(C)/N=C/c1c[nH]c2ccccc12	resazurin	inhibition				6.25 µg/mL	H37Rv (ATCC 27294)	9%
CCOC(=O)c1cc(CNc2cccc(OC)c2)on1	resazurin	MIC					H37Rv	12 µM
O=c1oc2ccc(Br)cc2c(=S)n1-c1ccc(C(F)(F)F)cc1		MIC		21 d			My 331/88	4 µM
CCOC(=O)c1cc(CNc2ccccc2CC)on1	resazurin	MIC					H37Rv	13.7 µM
CCc1nc2c(F)cc(C)cn2c1C(=O)NCc1ccc(N2CCN(S(=O)(=O)C(F)(F)F)C=N2)c(F)c1	GFP	EC50						0.00039 µM
CCOC(=O)c1cc(CNc2cccc(C#N)c2)on1	resazurin	MIC					H37Rv	57.9 µM
C=CCS/C(N)=N/NC(=O)c1ccc(F)cc1		MIC					H37Rv	>100 µg/mL
O=S(=O)(O)C1=CC(=N/Br)/C=CC/1=N\Br	BACTEC	MIC bound					H37Rv	>12.5 µg/mL
CCOC(=O)c1ccc(N2CCN(CCn3c(-c4cncc(-c5ccc(F)cc5)c4)nc4cc(C(=O)OCC)ccc43)CC2)c(N)c1	resazurin	MIC	Isoniazid-resistant				INHR-MTB	6.12 µM
O=C(O)c1ccc(C2=Nc3cccc4cccc(c34)N2)cc1	BACTEC	inhibition				12.5 µg/mL	H37Rv	7%
Cc1ccc(C(=O)[C@@H]2[C@H]3C(=O)N(c4ccccc4)C(=O)[C@H]3[C@H]3C=Cc4c(ccc5cccnc45)N32)cc1	reporter gene / fluorescence	MIC					H37Rv	>200 µM
O=[N+]([O-])/C=C/c1c(-c2ccccc2)[nH]c2ccccc12	resazurin	inhibition				6.25 µg/mL	H37Rv (ATCC 27294)	38%
CO[C@H]1C[C@@H]2\C=C(C)/C=C/C=C\C(=O)N[C@H](c3ccccc3)C/C=C/CC[C@H](O)CC(=O)C2=C1O		MIC					PZA-R	3.1 µg/mL
CCOC(=O)c1cc(CNc2cccc(OC(F)(F)F)c2)on1	resazurin	MIC					H37Rv	2.4 µM
C[C@H]1[C@@H]2CC[C@H]3[C@@H](O)[C@@]2(C[C@@H](O)[C@@]2(O)[C@H]1C[C@H](O)C2(C)C)C[C@@]3(C)O	BACTEC	inhibition				12.5 µg/mL	H37Rv	0%
COC(=O)CC1CCCC(CCCCCCCCCCc2ccccc2)O1		MIC						>128 µg/mL
CN(C)c1ccc(NN=C2SC(=Nc3ccccc3)C(=Nc3ccccc3)S2)cc1	resazurin	inhibition				6.25 µg/mL	H37Rv	13%
COc1ccc(NC(=O)c2ccccc2O)cc1		MIC					My 331/88	62 µM
N/C(=N\NC(=O)c1ccc(F)cc1)SCc1cccc(Cl)c1		MIC					H37Rv	>100 µg/mL
COC(=O)c1c(C(=O)OC)c2ccc3c4ncccc4ccc3n2c1C(=O)c1ccc([N+](=O)[O-])cc1	reporter gene / fluorescence	MIC					H37Rv	>100 µM
Cc1[nH]c2ccccc2c1/C=N/N=C/c1c(C)[nH]c2ccccc12	resazurin	inhibition				6.25 µg/mL	H37Rv (ATCC 27294)	10%
CCOC(=O)c1cc(-c2cc(C(F)(F)F)cc(C(F)(F)F)c2)on1	low oxygen	MIC					H37Rv	8.1 µM
COc1cc2c3c(cc4ccccc4c3c1O)NC2=O		MIC						8 µg/mL
Cc1cc([N+](=O)[O-])c2nnnn2c1	resazurin	MIC bound					H37Rv	>6.25 µg/mL
COC(=O)c1c(C(=O)OC)c2ccc3c4ncccc4ccc3n2c1C(=O)c1ccc(Br)cc1	reporter gene / fluorescence	MIC					H37Rv	>20 µM
CC(=O)CCCCCCCCCCCCCCc1ccc2c(c1)OCO2		MIC						6.25 µg/mL
CCOC(=O)c1ccc(N2CCN(CCn3c(-c4ccc(C)cc4)nc4cc(C(=O)OCC)ccc43)CC2)c(N)c1	resazurin	MIC	Isoniazid-resistant				INHR-MTB	2.1 µM
CC(C)c1ccc(C2NC(=S)NC3=C2c2ccccc2C3=O)cc1	BACTEC	inhibition				12.5 µg/mL	H37Rv	90%
O=C(/C=C/c1ccc(O)cc1)NCCc1ccc(O)cc1		MIC						32 µg/mL
Cc1ccc(S(=O)(=O)NC(=O)c2ncn([C@@H]3O[C@H](CO)[C@@H](O)[C@H]3O)c2N)cc1	BACTEC	inhibition				12.5 µg/mL	H37Rv	10%
CCOC(=O)c1cc(CN(C)c2cccc3ccccc23)on1		MIC					H37Rv	6.5 µM
C/C(=N\NC(=S)N1CCN(C(=S)N/N=C(\C)c2ccccn2)CC1)c1ccccn1	BACTEC	inhibition				12.5 µg/mL	H37Rv	99%
CCOC(=O)c1cc(C(=O)c2ccc(OC)cc2)n2c1ccc1c3ncccc3ccc12	reporter gene / fluorescence	EC50					H37Rv	>200 µM
Cc1ccc(Nc2cc(N)nc(N)n2)cc1	BACTEC	inhibition				12.5 µg/mL	H37Rv	27%
Fc1ccc2oc(=S)n(-c3ccccc3)c(=S)c2c1		MIC		14 d			My 331/88	4 µM
CCOC(=O)c1cc(CNc2cc(F)cc(F)c2F)on1	resazurin	MIC					H37Rv	53.8 µM
CC(=O)C[C@@H]1C[C@H]2[C@H]([C@@H]3c4[nH]c5ccccc5c4CCN13)[C@H](O)C13CC/C=C\CCCCN1CC21CC/C=C\CCCNC13		MIC					H37Rv	1.5 µg/mL
NNC(=O)C1C(O)CCC2CN3CCc4c([nH]c5ccccc45)C3CC21	BACTEC	MIC bound					H37Rv	>12.5 µg/mL
O=c1[nH]c2ccccc2c(=O)n1-c1cccc([N+](=O)[O-])c1		MIC					My 331/88	200 µM
CCCCCCCCCCCCP(=O)([O-])C[C@@H]1O[C@H](CO)[C@@H](O)[C@@H]1O		EC50					H37Rv	>6.25 µg/mL
Cc1ccc(NC(=O)/C(CC(=O)c2c[n+](=O)c3ccccc3n2[O-])=N/NC(=O)C[n+]2ccccc2)cc1.[Cl-]	BACTEC	MIC					H37Rv	≥12.5 µg/mL
CO[C@H]1/C=C/O[C@@]2(C)Oc3c(C)c(O)c4c(O)c(c(/C=N/N5CCN(C)CC5)c(O)c4c3C2=O)NC(=O)/C(C)=C\C=C\[C@H](C)[C@H](O)[C@@H](C)[C@@H](O)[C@@H](C)[C@H](OC(C)=O)[C@@H]1C	reporter gene / fluorescence	EC50					H37Rv	0.0036 µM
COc1ccc(-c2n[nH]c3nc4ccccc4n3c2=O)cc1	resazurin	MIC bound					H37Rv	>6.25 µg/mL
C=CCS/C(N)=N/NC(=O)c1ccc([N+](=O)[O-])cc1		MIC					H37Rv	>100 µg/mL
Cc1cc(CSc2ssc(=S)c2-c2ccccc2)c(CSc2ssc(=S)c2-c2ccccc2)cc1C	resazurin	inhibition				6.25 µg/mL	H37Rv	30%
CC1(C)S[C@@H]2[C@H](NC(=O)[C@H](N)c3ccccc3)C(=O)N2[C@H]1C(=O)O		MIC90						>92 µM
CCOC(=O)c1ccc(N2CCN(CCn3c(-c4ccc(O)cc4O)nc4cc(C(=O)OCC)ccc43)CC2)c(N)c1	broth dilution	MIC					H37Rv	4.32 µM
COc1cc(C(=O)N/N=C(\N)SCc2cccc(Cl)c2)cc(OC)c1OC		MIC					H37Rv	>100 µg/mL
Fc1cccc(-n2c(=S)oc3ccc(F)cc3c2=S)c1		MIC		14 d			My 331/88	16 µM
COC1=NN(c2ccc(CNC(=O)c3c(C(F)F)nc4ccccn34)cc2)CCN1S(=O)(=O)C(F)(F)F	GFP	EC50						0.083 µM

A second listing of 8 rows from above:

compound | method | measure | changes | conditions | cell line | tested at | strain or isolate | value
CCCCCCCCCCCCCCCCS(=O)(=O)C[C@@H]1O[C@H](CO)[C@@H](O)[C@@H]1O |  | inhibition |  |  |  | 6.25 µg/mL | H37Rv | 0%
COc1ccc(-c2n[nH]c3nc4ccccc4n3c2=O)cc1 | resazurin | MIC bound |  |  |  |  | H37Rv | >6.25 µg/mL
CN(C)c1ccc(NN=C2SC(=Nc3ccccc3)C(=Nc3ccccc3)S2)cc1 | resazurin | inhibition |  |  |  | 6.25 µg/mL | H37Rv | 13%
Cc1cc([N+](=O)[O-])c2nnnn2c1 | resazurin | MIC bound |  |  |  |  | H37Rv | >6.25 µg/mL
COc1ccc(NC(=O)c2ccccc2O)cc1 |  | MIC |  |  |  |  | My 331/88 | 62 µM
CCOC(=O)c1cc(CN(C)c2cccc3ccccc23)on1 |  | MIC |  |  |  |  | H37Rv | 6.5 µM
O=c1[nH]c2ccccc2c(=O)n1-c1cccc([N+](=O)[O-])c1 |  | MIC |  |  |  |  | My 331/88 | 200 µM
C=CCc1ccc(O)c(OC)c1 |  | MIC |  |  |  |  |  | >128 µg/mL